PubChem BioAssay AID504761 – Drosophila RNAi Screening Center, 2011
The screen tested about 22,000 reagents; shown is an unselected part of those that have a named target and a result. Of all reagents, 116 (0.52%) are marked active. 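Calls depend on retest data that are not deposited; infection was ranked per plate without normalising between plates; the unit of the infection score is not given.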 Raw values vary from plate to plate and are shown uncorrected. A plus sign joins genes that one reagent is predicted to hit. Not stated in the record: the amount of reagent, the time to read-out.

Purpose: 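Genome-wide fly cell screen for genes dengue virus requires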 (primary screen)
Cells: D.Mel-2 cells from Drosophila
Reagents: long dsRNA against Drosophila genes
Conditions: infection with dengue virus type 2; dose and infection time not stated
Read-out: 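Per well on two replicate plates, imaging gave the percent of cells positive for viral envelope protein, ranked by infection, and a nuclear count of cells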
Reading the numbers: infection score: higher = more virus-infected cells; cell count: higher = more cells in the well
Hit rule: 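Very low infection ranking in both replicate wells (chance probability at most 0.065), then a retest showing infection dropped 1.5-fold or more at p below 0.05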
Meaning of the calls: active = confirmed: knock-down lowers infection; inactive = not picked or not confirmed

gene knocked down | amplicon | infection score, replicate 1 | infection score, replicate 2 | cell count, replicate 1 | cell count, replicate 2 | activity call
Es2 | DRSC18663 | 1.96 | 0.25 | 6569 | 7180 | inactive
Es2 | DRSC27829 | 16.4 | 20.1 | 5912 | 6669 | inactive
CG14609 | DRSC12553 | 9.76 | 7.17 | 6109 | 6208 | inactive
CG1092 | DRSC12151 | 15.9 | 20.5 | 3973 | 5951 | inactive
CG1092 | DRSC24479 | 1.24 | 1.37 | 6539 | 6427 | inactive
Srg3 (Sting-regulated gene 3) | DRSC08984 | 4.74 | 5.08 | 6500 | 6178 | inactive
Srg3 (Sting-regulated gene 3) | DRSC10178 | 3.42 | 2.26 | 6163 | 5829 | inactive
akirin | DRSC11000 | 19.9 | 18.1 | 4645 | 4308 | inactive
akirin | DRSC26196 | 18.8 | 4.52 | 4451 | 5511 | inactive
CG3529 | DRSC10369 | 4.34 | 1.46 | 6292 | 6237 | inactive
CG3529 | DRSC25300 | 3.23 | 7.87 | 6260 | 5975 | inactive
Fer1HCH (Ferritin 1 heavy chain homologue) | DRSC16671 | 4.25 | 12.2 | 6195 | 6885 | inactive
Top2 (Topoisomerase 2) | DRSC03459 | 3.33 | 2.58 | 1592 | 5688 | inactive
CG30414 | DRSC04372 | 4.83 | 6.59 | 6397 | 6328 | inactive
CG30414 | DRSC28748 | 20.1 | – | 4208 | 306 | inactive
goe (gone early) | DRSC19345 | 2.55 | 3.56 | 6233 | 6156 | inactive
goe (gone early) | DRSC29879 | 22.9 | 10 | 5974 | 5939 | inactive
spn-D (spindle D) | DRSC22641 | 12.7 | 2.35 | 5794 | 6634 | inactive
Upf2 | DRSC18218 | 1.81 | 1.58 | 5691 | 5522 | inactive
Upf2 | DRSC27785 | 6.79 | 15.8 | 6185 | 6001 | inactive
CG14374 | DRSC14834 | 5.58 | 14.1 | 4858 | 6786 | inactive
CG14767 | DRSC06500 | 2.52 | 15.4 | 6121 | 6458 | inactive
CG14767 | DRSC28418 | 14.7 | 12.2 | 1829 | 4830 | inactive
CG43672 | DRSC19452 | 6.1 | 3.7 | 5479 | 6059 | inactive
CG43672 | DRSC20108 | 4.44 | 7.16 | 5925 | 5977 | inactive
Gfrl (Glial cell line-derived neurotrophic family receptor-like) | DRSC15197 | 14.3 | 11.2 | 6747 | 6763 | inactive
Gfrl (Glial cell line-derived neurotrophic family receptor-like) | DRSC15199 | 9.49 | 3.69 | 6301 | 6701 | inactive
Gfrl (Glial cell line-derived neurotrophic family receptor-like) | DRSC15565 | 4.89 | 3.72 | 7143 | 6585 | inactive
Gfrl (Glial cell line-derived neurotrophic family receptor-like) | DRSC15719 | 10.1 | 0.99 | 5889 | 6855 | inactive
Gfrl (Glial cell line-derived neurotrophic family receptor-like) | DRSC25385 | 7.85 | 1.9 | 6115 | 6250 | inactive
Gfrl (Glial cell line-derived neurotrophic family receptor-like) | DRSC26132 | 14.7 | 5.35 | 6145 | 6186 | inactive
Gfrl (Glial cell line-derived neurotrophic family receptor-like) | DRSC27810 | 12.6 | 33.9 | 6976 | 3362 | inactive
Gfrl (Glial cell line-derived neurotrophic family receptor-like) | DRSC28808 | 14.1 | 14.9 | 5697 | 5772 | inactive
CG11694 | DRSC14354 | 7.36 | 4.93 | 7106 | 6769 | inactive
CG11694 | DRSC24061 | 1.05 | 1.43 | 7027 | 6867 | active
CG4461 | DRSC10423 | 4.1 | 5 | 5860 | 6177 | inactive
CG4461 | DRSC29266 | 19.4 | 19.2 | 5682 | 6200 | inactive
CG5478 | DRSC15814 | 2.79 | 3.45 | 6494 | 6406 | inactive
Pfrx (6-phosphofructo-2-kinase) | DRSC18856 | 9.48 | 3.22 | 6012 | 5990 | inactive
Pfrx (6-phosphofructo-2-kinase) | DRSC19315 | 4.22 | 4.38 | 5853 | 5987 | inactive
Pfrx (6-phosphofructo-2-kinase) | DRSC28602 | 20.9 | 7.09 | 5755 | 3328 | inactive
CG2861 | DRSC18229 | 3.8 | 4 | 5654 | 5627 | inactive
SoYb | DRSC02901 | 7.46 | 4.68 | 6197 | 6361 | inactive
CG15155 | DRSC02456 | 0.68 | 19.8 | 730 | 5998 | inactive
ptc (patched) | DRSC05117 | 8 | 2.71 | 6548 | 6357 | inactive
ptc (patched) | DRSC07669 | 15.1 | 10.2 | 2622 | 6451 | inactive
Bap111 (Brahma associated protein 111kD) | DRSC18419 | 2.76 | 1.46 | 6489 | 6798 | inactive
Bap111 (Brahma associated protein 111kD) | DRSC28822 | 7.01 | 15.2 | 984 | 2303 | inactive
CG11403 | DRSC18532 | 8.84 | 1.85 | 5680 | 6050 | inactive
VhaAC39-1 (Vacuolar H[+] ATPase AC39 subunit 1) | DRSC18242 | 1.11 | 3.04 | 6286 | 6537 | inactive
VhaAC39-1 (Vacuolar H[+] ATPase AC39 subunit 1) | DRSC27608 | 1.64 | 2.19 | 5431 | 5515 | active
CG2712 | DRSC18589 | 14.9 | 4.69 | 1113 | 6225 | inactive
CG7685 | DRSC16285 | 4.95 | 5.92 | 6625 | 6657 | inactive
CG7685 | DRSC27560 | 17.6 | 16.9 | 6454 | 6088 | inactive
shv (shriveled) | DRSC00640 | 26.7 | 22.6 | 6160 | 6520 | inactive
shv (shriveled) | DRSC22122 | 4.11 | 4.95 | 6421 | 6824 | inactive
shv (shriveled) | DRSC26482 | 1.49 | 2.71 | 5645 | 5719 | inactive
shv (shriveled) | DRSC26483 | 2.67 | 2.96 | 5701 | 6154 | inactive
CG6497 | DRSC10654 | 2.63 | 0.66 | 6005 | 6677 | inactive
CG6497 | DRSC21469 | 3.27 | 2.47 | 6633 | 7208 | inactive
CG6497 | DRSC26253 | 10.1 | 7.83 | 4107 | 5581 | inactive
CG30376 | DRSC05086 | 3.49 | 3.07 | 5906 | 5445 | inactive
CG17648 | DRSC00508 | 3.82 | 5.88 | 6365 | 6870 | inactive
Act42A (Actin 42A) | DRSC04835 | 6.82 | 8.26 | 6500 | 6719 | inactive
Act42A (Actin 42A) | DRSC25061 | 8.52 | 13.1 | 4978 | 5537 | inactive
CG13991 | DRSC02323 | 5.44 | 0.8 | 5936 | 6650 | inactive
ttk (tramtrack) | DRSC14078 | 0.15 | 2.12 | 6674 | 6405 | inactive
ttk (tramtrack) | DRSC17091 | 3.27 | 1.07 | 3366 | 3375 | inactive
ttk (tramtrack) | DRSC27078 | 5.51 | 5.04 | 5936 | 6463 | inactive
CG7054 | DRSC16185 | 12.1 | 2.19 | 6458 | 6951 | inactive
CG7054 | DRSC26659 | 2.13 | 2.26 | 6115 | 6019 | inactive
ste24c + CG30461 | DRSC05639 | 4.73 | 6.01 | 6391 | 5988 | inactive
ste24c + CG30461 | DRSC07316 | 16.3 | 5.52 | 6187 | 7104 | inactive
Hen1 (Hen1 methyltransferase) | DRSC06139 | 22.1 | 19.5 | 3543 | 5680 | inactive
Hen1 (Hen1 methyltransferase) | DRSC06140 | 22.1 | 16.7 | 3478 | 5673 | inactive
Hen1 (Hen1 methyltransferase) | DRSC26993 | 15.5 | 1.39 | 6769 | 6257 | inactive
